Measured values reported in US20150099705A1.

What was measured:
Experiment in all cases: cell-based or functional assay
[1] = target: human Nav1.7 (sodium channel protein type 9 subunit alpha) (human), Q15858
[2] = target: human Nav1.5 (human), Q14524
human Nav1.6 (human) = target: human Nav1.6 (human)

Binder	hNav1.7 TETRA IC50 [1]	other results
GPYCQKWMWTCDSKRKCCEGMVCRLWCKKKLW (modifications not checked) [NV1D791]	4.8 nM	–
GPACQKWFQTCDSERKCCEGMVCRLWCKKKLW (modifications not checked) [NV1D2816]	667 nM	–
GPACQKWMQTCDSERKCCEGFVCRLWCKKKLW (modifications not checked) [NV1D2735]	60 nM	–
GPSCQKWFQTCDSERKCCEGMVCRLWCKKKLW (modifications not checked) [NV1D2814]	754 nM	–
GPYCQKWMWTCDSNRKCCEGMVCRLWCKKKLW (modifications not checked) [NV1D1332]	6.7 nM	–
GPACQKWFQTCDAERKCCEGMVCRLWCKKKLW (modifications not checked) [NV1D2867]	> 1000 nM	–
GPACQKWFQTCDSERKCCEGFVCRLWCKKKLW (modifications not checked) [NV1D2881]	488 nM	–
GPACQKWFQTCDSERKCCEGLVCRLWCKKKLW (modifications not checked) [NV1D2882]	857 nM	–
GPQCQKWFQTCDAERKCCEGMVCRLWCKKKLW (modifications not checked) [NV1D2861]	> 1000 nM	–
GPQCQKWFQTCDSERKCCEGLVCRLWCKKKLW (modifications not checked) [NV1D2870]	784 nM	–
GPYCQKWMWTCDSERKCCEGLVCRLWCKKKLW (modifications not checked) [NV1D1336]	10.5 nM	–
GPSCQKWFQTCDSERKCCEGFVCRLWCKKKLW (modifications not checked) [NV1D2877]	441 nM	–
GPSCQKWFQTCDSERKCCEGLVCRLWCKKKLW (modifications not checked) [NV1D2878]	680 nM	–
GPSCQKWFWTCDAERKCCEGFVCRLWCKKKLW (modifications not checked) [NV1D2889]	12.1 nM	–
GPYCQKWFQTCDAERKCCEGFVCRLWCKKKLW (modifications not checked) [NV1D2905]	713 nM	–
GPYCQKWFQTCDAERKCCEGLVCRLWCKKKLW (modifications not checked) [NV1D2906]	940 nM	–
GPACQKWFQTCDAERKCCEGFVCRLWCKKKLW (modifications not checked) [NV1D2921]	586 nM	–
GPACQKWFQTCDAERKCCEGLVCRLWCKKKLW (modifications not checked) [NV1D2922]	204 nM	–
GPQCQKWFQTCDAERKCCEGFVCRLWCKKKLW (modifications not checked) [NV1D2909]	97.1 nM	–
GPQCQKWFQTCDAERKCCEGLVCRLWCKKKLW (modifications not checked) [NV1D2910]	441 nM	–
GPRCQKWFQTCDAERKCCEGFVCRLWCKKKLW (modifications not checked) [NV1D2913]	79.7 nM	–
GPSCQKWFQTCDAERKCCEGFVCRLWCKKKLW (modifications not checked) [NV1D2917]	197 nM	–
GPSCQKWFQTCDAERKCCEGLVCRLWCKKKLW (modifications not checked) [NV1D2918]	983 nM	–
GPYCQKWMWTCDSERKCCEGMVCRLWCKKKLW (modifications not checked) [NV1D12]	–	hNav1.5 QPatch IC50 [2]: > 1000 nM; IC50, QPatch electrophysiology assay (human Nav1.6 (human)): 6.2e-08 M
GPACQKWMQTCDAERKCCEGFVCRLWCKKKLW (modifications not checked) [NV1D2774]	–	hNav1.5 QPatch IC50 [2]: > 3000 nM
GPQCQKWMQTCDAERKCCEGFVCRLWCKKKLW (modifications not checked) [NV1D2775]	–	hNav1.5 QPatch IC50 [2]: > 3000 nM
GPRCQKWMQTCDAERKCCEGFVCRLWCKKKLW (modifications not checked) [NV1D2772]	–	hNav1.5 QPatch IC50 [2]: > 3000 nM; hNav1.7 QPatch IC50 [1]: 6.2 nM
GPSCQKWMQTCDAERKCCEGFVCRLWCKKKLW (modifications not checked) [NV1D2773]	–	hNav1.5 QPatch IC50 [2]: > 3000 nM
GPQCQKWMQTCDRERKCCEGFVCTLWCRKKLW (modifications not checked) [NV1D3034]	–	hNav1.5 QPatch IC50 [2]: > 1000 nM
